# Patent US20090068637A1 (published 2009)
# B1: 10F7 single chain antibody (scFv)
# scFv: QVQLQQPGAELVKPGASVKLSCKASGYTFTSYWMHWVKQRPGQGLEWIGEIDPSDSYTNYNQKFKGKATLTVDKSSSTAYMQLSSLTSEDSAVYYCARGGTGDFHYAMDYWGQGTSVTVSSGGGGSDILMTQSPSSMSVSLGDTVSITCHASQGISSNIGWLQQKPGKSFKGLIYHGTNLEDGVPSRFSGSGSGADYSLTISSLESEDFADYYCVQYVQFPYTFGGGTKLEIKR
# Biological target: hemagglutinin of virus strain Ck/HK/Yu22/02 (H5N1) (avian influenza virus H5N1, UniProt Q6DQ18 1-559)
# Assay: cell-based or functional assay
binder,measurement,value
B1,neutralization test: dilution of 10F7 scFv,64 fold dilution
